Laboratory results taken from publication PMC5783350, “Development of an activity-based probe for acyl-protein thioesterases” (PLoS ONE, 2018).

Test system: TgPPT1
Experiment: Intact parasite labeling, in-gel fluorescence
Format: cell-based, Toxoplasma gondii
Conditions: intact wild-type tachyzoites, same probe concentration

In the case of fluorophosphonate rhodamine, the “Labeling of TgPPT1 in intact T. gondii tachyzoites” value is reported as “unable to label TgPPT1 in intact parasites”.
